Laboratory results taken from paper PMC8865458.

Test system: His-NrtR (Pseudomonas aeruginosa PAK)
Experiment: EMSA
Settings: 0, 4, 8 uM NrtR, 40 ng DNA; 10 mM Tris, 1 mM DTT, pH 7.5, […]; recombinant protein; residues 1-231; protein details: N-terminal His (pET28a); probe letters rebuilt from the primers and the genome

## TGCTACTCCTTGCATTGCCAGCGCCCGGCTCTTCCAGGCGCTCACCCCCGTGCCCGAGGGATTTCGGTTCGCATCCAGGCTGGCCCGACGGCTTTCCGGCGTTTCGTCGCCTCGGGAAGACACATCGGGTGGTACCGGATTATAAAAGACTAATCCTACGTCTTTTAAAGATTTGTCCGATCTGCGGTGTCATGCAACTAGTGGCGTTGTGCCTTCCTTGACAAGCCTTGCGGCATGCCACAAGAATTTTGCCAACCTTTCGAGTCATCCGATATTCATCAATGGCTCCTACAAGATCCGACGGAGTGGATCTTACAAGCGAAGGTGAGGGCCGCGCAGCGGCTTCGATGATAGGGAGATCGTCACC (double strand) [tssA1 promoter fragment]
  binding result: binds
